Results of unrelated studies side by side (data: NIAID ChemDB).

Common to all: toxicity to cultured cells; read-out: CC50

CCn: concentration that lowers growth or viability of the cells by n%.

| SMILES | read by | cell line | result |
|---|---|---|---|
| CCOC(=O)c1cc(O)c(O)c(O)c1 | MTS | HT-29 | >200 µM |
| NC(=S)Nc1cccc(OCCCCCOc2cccc(Cc3ccccc3)c2)c1 | MTS | Ava5-EG(delta4AB)SEAP | >1 µM |
| COC(=O)N[C@@H]1[C@H](C)O[C@@H](OC2C/C=C(\C)[C@H]3C=C[C@H]4[C@H](OC5C[C@@H](OC6C[C@@H](O)[C@@H](OC7C[C@@H](O)[C@@H](OC)[C@H](C)O7)[C@H](C)O6)[C@@H](O)[C@H](C)O5)[C@H](C)C[C@@H](C)[C@@H]4[C@@]3(C)/C(O)=C3/C(=O)OC4(C[C@H](C)C(C=O)=C[C@H]4/C=C\2C)C3=O)C[C@@]1(C)[N+](=O)[O-] | MTT | CEM-TART lymphoblastoid cells | 8.6 µM |
| Oc1ccc([C@H]2Oc3ccc(/C=C/c4cc(O)cc(O)c4)cc3[C@@H]2c2cc(O)cc(O)c2)cc1 | MTT | MDCK | 38.42 µg/mL |
| COc1cc(OC[C@H]2CC[C@@H](CO)O2)nc(N)n1 |  | L1210 | >250 µM |
| CCC(C)Sc1n[nH]c(-c2ccc(C)cc2)n1 | MTT | Panc-1 | >100 µg/mL |
| Cn1c2c3ccccc3nc-2cc2ccccc21 | MTT | Macrophage | 17 µM |
| CC(C)CN(C[C@@H](O)[C@H](Cc1ccccc1)NC(=O)[C@]12CC[C@@H](C)[C@H](C)[C@H]1C1=CC[C@@H]3[C@@]4(C)CC[C@@H](O)C(C)(C)[C@@H]4CC[C@@]3(C)[C@]1(C)CC2)S(=O)(=O)c1ccc([N+](=O)[O-])cc1 | absorbance | HUVEC | >100 µM |
| [N-]=[N+]=N[C@H]1[C@@H](F)[C@H](N2C=CC(N)NC2=O)O[C@@H]1CO |  | VERO B | >400 µg/mL |
| CCCCCCCNC(=S)Nc1cccc(OCCCCCc2ccccc2)c1 | MTS | Ava5-EG(delta4AB)SEAP | >1 µM |
| C#CCSc1n[nH]c(-c2cccc([N+](=O)[O-])c2C)n1 |  | Panc-1 | >100 µg/mL |
| N#Cc1nc2c(-c3nc4ccccc4[nH]3)c(N)n(CC(O)c3ccccc3)c2nc1C#N | resazurin / fluorescence | L6 rat skeletal myoblasts | 16 µM |
| Cc1cc(=O)oc2cc(OCc3cn(Cc4cc(=O)oc5ccc6ccccc6c45)nn3)ccc12 | MTT | V79 | 48.25 µg/mL |
| CC(C)CN(C[C@@H](O)[C@H](Cc1ccccc1)NC(=O)[C@]12CCC(C)(C)C[C@H]1C1=CC[C@@H]3[C@@]4(C)CC[C@@H](O)C(C)(C)[C@@H]4CC[C@@]3(C)[C@]1(C)CC2)S(=O)(=O)c1ccc(N)cc1 | absorbance | HUVEC | 86.85 µM |
| NC(=S)Nc1cccc(OCCCCCOc2ccc(-c3ccc(Cl)cc3)cc2)c1 | MTS | Ava5-EG(delta4AB)SEAP | >1 µM |
| COc1ccc(/C=C/C=C2C(=O)C=CC2=O)cc1 | XTT | HeLa S3 | >10 µM |
| COc1cc(/C=C/c2ccc3c(c2)[C@H](c2cc(O)cc(O)c2)[C@@H](c2ccc(O)cc2)O3)cc(OC)c1 | MTT | MDCK | 13.34 µg/mL |
| NC1=Nc2ccc(Cl)cc2C1(O)Cc1ccccc1 |  | Erythrocyte | >147 µM |
| OCC1CCC(c2ccc3ncnc(Nc4ccc(C5CCOCC5)cc4)c3c2)O1 |  | Con1-SR | 29.3 µM |
| Cc1ccc(C=C2C(=O)C=CC2=O)cc1 | XTT | HeLa S3 | >10 µM |
| CCOC(=O)CCCCCOc1cccc(CN(C(=O)c2ccc(-c3ccc4ccccc4c3)cc2)C(C)C)c1 |  | HepG2 | >20 µM |
| CCOc1ccc(F)cc1C1(O)C(N)=Nc2ccc(Cl)cc21 |  | Erythrocyte | >125 µM |
| CCCCCCCCNC(=S)Nc1ccc2c(c1)Cc1cc(Br)ccc1-2 | MTS | Ava5-EG(delta4AB)SEAP | >1 µM |
| Nc1cc(OC[C@H]2CC[C@@H](COCc3ccccc3)O2)ncn1 |  | CAKI-1 | 127 µM |
| CN(C(=O)c1ccncc1)c1cc(C(F)(F)F)ccc1N1CCCCC1 | MTS | Huh7/Rep-Feo-2a | >30 µM |
| S=c1nc(-c2ccc(Cl)cc2)[nH][nH]1 | MTT | Panc-1 | >100 µg/mL |
| CCOC(=O)CCCCCOc1cccc(CN(C(=O)c2ccc(-c3cccc(OC)c3)cc2)C(C)C)c1 |  | HepG2 | >20 µM |
| Nc1nc(Cl)cc(OC[C@@H]2O[C@H](COCc3ccccc3)[C@@H](OCc3ccccc3)[C@H]2OCc2ccccc2)n1 |  | PC-3 | 45 µM |
| C#CCSc1n[nH]c(-c2ccc(C(F)(F)F)cc2)n1 | MTT | THP-1 | 49.55 µg/mL |
| CCCN(Cc1ccccc1OCC(=O)O)C(=O)c1ccc(-c2ccc3c(c2)OCO3)cc1 |  | RAJI | >20 µM |
| CN(C)c1ccc(C=C2C(=O)C=CC2=O)cc1 | XTT | HeLa S3 | >10 µM |
| C=C(C)[C@@H]1CC[C@]2(C(=O)O)CC[C@]3(C)[C@H](CC[C@@H]4[C@@]5(C)CC[C@H](O)C(C)(C)[C@@H]5CC[C@]43C)[C@@H]12 | XTT | 1A2 | 27.2 µg/mL |
| NC(=S)Nc1cccc(OCCCCCOc2cccc(Nc3ccccc3)c2)c1 | MTS | Ava5-EG(delta4AB)SEAP | >1 µM |
| Nc1nc(Cl)cc(OC[C@H]2CC[C@@H](COCc3ccccc3)O2)n1 |  | L1210 | 132 µM |
| FC(F)(F)c1cccc(-c2nc(=S)[nH][nH]2)c1 | MTT | Panc-1 | >100 µg/mL |
| Nc1nc2c(ncn2[C@@H]2O[C@H](CO)[C@@H](O)[C@H]2F)c(=O)[nH]1 | MTT | CEF | 17 µM |
| CC(C)CN(C[C@@H](O)[C@H](Cc1ccccc1)NC(=O)[C@]12CCC(C)(C)C[C@H]1C1=CC[C@@H]3[C@@]4(C)CC[C@@H](O)C(C)(C)[C@@H]4CC[C@@]3(C)[C@]1(C)CC2)S(=O)(=O)c1ccc([N+](=O)[O-])cc1 | absorbance | HUVEC | >100 µM |
| Cc1cccc(-c2nc(=S)[nH][nH]2)c1 | MTT | Panc-1 | >100 µg/mL |
| O=c1nc(Nc2ccc(-c3cnc4ccccc4c3)cc2)c2cccnc2n1O |  | PM1 | 2.1 µM |
| COC(=O)N[C@@H]1[C@H](C)O[C@@H](OC2C/C=C(\C)[C@H]3C=C[C@H]4[C@H](OC5C[C@@H](O[C@@H]6C[C@@H](O)[C@@H](O)[C@H](C)O6)[C@@H](O)[C@H](C)O5)[C@H](C)C[C@@H](C)[C@@H]4[C@@]3(C)/C(O)=C3/C(=O)OC4(C[C@H](C)C(C)=C[C@H]4/C=C\2C)C3=O)C[C@@]1(C)[N+](=O)[O-] | MTT | CEM-TART lymphoblastoid cells | 1.7 µM |
| C=CCSc1n[nH]c(-c2ccc([N+](=O)[O-])c(C(F)(F)F)c2)n1 | MTT | Panc-1 | >100 µg/mL |
| CC(=O)N[C@@H](CCCNC(=O)OCc1ccccc1)C(=O)O |  | CEM-IW | >100 µM |
| CC(C)N(Cc1cccc(OCCCCCC(=O)OC(=O)O)c1)C(=O)c1ccc(-c2cccc(F)c2)cc1 |  | HEK 293 | >20 µM |
| O=C1C=CC(=O)C1=C/C=C/c1ccc(Cl)cc1 | XTT | HeLa S3 | >10 µM |
| N#Cc1nc2c(-c3nc4ccccc4[nH]3)c(N)n(CCc3ccccc3)c2nc1C#N | resazurin / fluorescence | L6 rat skeletal myoblasts | 55 µM |
| COc1cnc(OC)c(C2(O)C(N)=Nc3ccc(Cl)cc32)c1 |  | Dermal fibroblast | >195 µM |
| COc1ncc2ncn([C@@H]3O[C@H](CO)[C@@H](O)[C@H]3F)c2n1 | MTT | CEF | >100 µM |
| Nc1nc2c(sc(=O)n2C/C=C\CO)c(=O)[nH]1 |  | BFU-E | 13 µM |
| C#CCNC(=O)NCCCC[C@H](NC(C)=O)C(=O)NCc1ccccc1 |  | CEM-IW | >100 µM |
| CNc1ncc2ncn([C@@H]3O[C@H](CO)[C@@H](O)[C@H]3F)c2n1 | MTT | CEF | >100 µM |
| Cc1cn([C@H]2O[C@H](CO)[C@@H](N=[N+]=[N-])[C@H]2F)c(=O)nc1N |  | VERO B | >400 µg/mL |
| COc1ccc(C=C2C(=O)C=CC2=O)cc1 | XTT | HeLa S3 | >10 µM |
| C=CCSc1n[nH]c(-c2ccc([N+](=O)[O-])c(C)c2)n1 |  | Panc-1 | >100 µg/mL |
| N#Cc1nc2c(-c3nc4ccccc4[nH]3)c(N)n(CCc3ccc(F)cc3)c2nc1C#N | resazurin / fluorescence | L6 rat skeletal myoblasts | 129 µM |
| O=C(O)C(O)c1ccccc1 |  | CaSki Cells | >1000 µg/mL |
| CCOC(=O)CCCCCOc1cccc(CN(C(=O)c2ccc(-c3cccc(C#N)c3)cc2)C(C)C)c1 |  | HEK 293 | >20 µM |
| C=C(C)C1CC[C@]2(C(=O)O)CC[C@]3(C)C(CCC4[C@@]5(C)C[C@@H](O)[C@H](C(=O)[O-])C(C)(C)C5CC[C@]43C)C12 | XTT | 1A2 | 19.8 µg/mL |
| Nc1nc2c(nc(N)n2[C@@H]2O[C@H](CO)[C@@H](O)[C@H]2F)c(=O)[nH]1 | MTT | CEF | 16 µM |
| O=C(Cc1nc(=O)n(O)c2ncccc12)NCc1ccccc1 |  | PM1 | 1.96 µM |
| COc1ccc2[nH]c3ccccc3c(=O)c2c1OC |  | OM-10.1 | 32 µg/mL |
| Cc1cc(=O)oc2cc(OCc3cn(Cc4cc(=O)oc5cc(Cl)ccc45)nn3)ccc12 | MTT | HBL100 | 54.39 µg/mL |
| CC(C)CN(C[C@@H](O)[C@H](Cc1ccccc1)NC(=O)[C@]12CC[C@@H](C)[C@H](C)[C@H]1C1=CC[C@@H]3[C@@]4(C)C[C@@H](O)[C@@H](O)[C@@](C)(CO)[C@@H]4CC[C@@]3(C)[C@]1(C)CC2)S(=O)(=O)c1ccc(N)cc1 | absorbance | HUVEC | >100 µM |
| Nc1nc(N)nc(OC[C@H]2CC[C@@H](COc3nc(N)nc(N)n3)O2)n1 |  | CAKI-1 | ≥250 µM |
| CCOC(=O)CCCCCOc1cccc(CN(C(=O)c2ccc(-c3ccc4[nH]ccc4c3)cc2)C(C)C)c1 |  | RAJI | >20 µM |
| C=CCSc1n[nH]c(-c2ccc(C(F)(F)F)cc2)n1 |  | Panc-1 | >100 µg/mL |
| COc1ccc(S(=O)(=O)N(CC(C)C)C[C@@H](O)[C@H](Cc2ccccc2)NC(=O)[C@]23CC[C@@H](C)[C@H](C)[C@H]2C2=CC[C@@H]4[C@@]5(C)CC[C@@H](O)C(C)(C)[C@@H]5CC[C@@]4(C)[C@]2(C)CC3)cc1 | absorbance | HUVEC | >100 µM |
| COc1ccc(Cn2c(N)c(-c3nc4ccccc4[nH]3)c3nc(C#N)c(C#N)nc32)cc1OC | resazurin / fluorescence | L6 rat skeletal myoblasts | 100 µM |
| Cn1c2ccccc2c(=O)c2c(O)ccc(O)c21 |  | OM-10.1 | 0.36 µg/mL |
| O=C1C=CC(=O)C1=Cc1ccccc1 | XTT | HeLa S3 | >10 µM |
| CCN(CC)CCCn1c(N)c(-c2nc3ccccc3[nH]2)c2nc(C#N)c(C#N)nc21 | resazurin / fluorescence | L6 rat skeletal myoblasts | 1 µM |
| COc1cc(O)c2c(=O)c3ccccc3n(C)c2c1 |  | OM-10.1 | 0.8 µg/mL |
| Nc1nc(OC[C@H]2CC[C@@H](COCc3ccccc3)O2)c2[nH]cnc2n1 |  | CAKI-1 | 184 µM |
| NC(=S)Nc1cccc(OCCCCCOc2c(Cl)cc(F)cc2Cl)c1 | MTS | Ava5-EG(delta4AB)SEAP | >1 µM |
| CCOC(=O)COc1ccc(C(O)O)cc1 |  | HepG2 | >20 µM |
| CCCNCCCC[C@H](NC(C)=O)C(=O)NCc1ccccc1 |  | CEM-IW | >100 µM |

Conditions beyond the fields shown may differ between rows. An empty or dashed field is not shown.